Construct, isoform or probe ends are uncertain for at least one entry. At least one verdict rests on a figure or table, not on a statement of the authors.

The data set relates to PhoB + TctD. In words: EMSA. The note with it: 30 uM TctD plus PhoB, slight supershift; EMSA: 20 ng probe, 15 ul, 20 mM Tris-HCl pH 7.5, 50 mM NaCl, 1 mM EDTA, 1 mM DTT, 100 ug/ml BSA, 150 ng/ul poly(dIdC), 5% glycerol, room temperature 30 min; recombinant protein; label: 5' IRDye700; probe letters rebuilt from the primers and the genome. A general note: In EMSA bound probe runs differently from free probe, usually more slowly.

As to “GCATCCTGCCGAGGGTGCCAGCGTTGAACAACGGCGCGTTACATCCGGCGACAATGTCATACAAGCATCACGCCCCTGTCACAGGGGTGACACCGCGCCTTCCTAGCCTGAGCTTGCACAACAAAGCCGAGCGGCCGCAACCCGCGGCGCCGGCCCAAGGAGGCCCAGGC (double strand) [PA14_56560 promoter]”, the binding result was “binds”.

The values above are taken from publication PMC4513871.
